Anti-infective test results gathered from many reports (values: NIAID ChemDB through PubChem).

Common to all: target-level tests; organism: HIV-1; target: Integrase; method: 3′ processing; endpoint: IC50

An empty or dashed field is not shown. ICn: concentration for n% inhibition. Lines come from different laboratories, so protocols vary.

smiles,strain,setting,value
Nc1ncnc(N)c1NC(=O)c1ccc(Cl)c([N+](=O)[O-])c1,-,-,>250 µM
N=C(N)c1ccc(OCCCCCOc2ccc(C(=N)N)cc2)cc1,-,-,>100 µM
Oc1ccc2c(c1)OC[C@]1(O)Cc3cc(O)c(O)cc3[C@H]21,-,-,9.6 µM
Oc1cc(O)c2c(c1)O[C@H](c1cc(O)c(O)c(O)c1)[C@@H](O)C2,-,-,412 µM
C=C(Cn1cnc2c(=O)[nH]c(N)nc21)OCP(=O)(O)OP(=O)(O)OP(=O)(O)O,-,-,63 µM
O=C(O)/C=C/c1cc(C(=O)O)c(O)c2nc(/C=C/c3ccc(O)c(O)c3)ccc12,-,-,0.3 µM
COC(=O)/C=C/c1ccccc1,-,-,>100 µM
COC(=O)C1=Cc2cc(OC)c(OC)cc2C(C2C=C(OC)C(OC)=CC2)C1C(=O)OC,-,-,>250 µM
Oc1ccc(/C=C/c2ncc3cccc(O)c3n2)cc1,-,-,>>200 µM
O=C(O)/C=C/c1ccc(O)c(O)c1,LAI,-,>50 µg/mL
COc1cc(/C=C/S(=O)(=O)CS(=O)(=O)/C=C/c2ccc(OC(C)=O)c(OC)c2)ccc1OC(C)=O,-,-,>1000 µM
c1nc(SSc2ncnc3nc[nH]c23)c2[nH]cnc2n1,-,-,>250 µM
COc1nc(=O)[nH]c2c1C(c1ccc([N+](=O)[O-])cc1)c1c(OC)nc(=O)[nH]c1O2,-,-,>250 µM
Nc1nc2c(ncn2CCOCP(=O)(O)O)c(=O)[nH]1,-,-,640 µM
O=C(Oc1ccc(/C=C/S(=O)(=O)CS(=O)(=O)/C=C/c2ccc(OC(=O)c3ccccc3)c(OC(=O)c3ccccc3)c2)cc1OC(=O)c1ccccc1)c1ccccc1,-,-,700 µM
CN1C(=O)C(c2cc(Cl)c(O)c(Cl)c2)NC(=O)[C@@H]2NC(=O)C(c3cc(Cl)c(O)c(Cl)c3)NC(=O)[C@H](NC(=O)C(=O)c3cc(Cl)c(O)c(Cl)c3)Cc3c[nH]c4cc(ccc34)-c3cc2cc(c3O)Oc2ccc(cc2)CC1C(=O)NC(C(=O)O)c1ccc(O)cc1,-,-,0.2 µM
CCCCCC(=O)c1c(O)cc2c(c1O)C(=O)c1c(O)cc(O)cc1C2=O,-,Mn2+,30 µM
CN(C)CCCNC(=O)c1cc(NC(=O)c2cc(NC(=O)c3cc(NC4C(=O)c5ccccc5C4=O)cn3C)cn2C)cn1C,-,-,33.3 µM
COc1ccc(/C=C/c2ncc3cccc(OC)c3n2)cc1O,-,-,>>200 µM
O=C(O)C(=O)/C=C(\O)c1c[nH]c(=O)n(Cc2ccccc2)c1=O,-,-,10 µM
O=C(OCC1OCOC(COC(=O)c2ccccc2)C(O)C1O)c1ccccc1,-,Mg2+,>200 µM
Oc1ccc(/C=C/c2ccc3cccc(O)c3n2)cc1O,-,-,130.7 µM
COc1cc([C@@H]2c3cc4c(cc3[C@@H](O[C@@H]3O[C@@H]5CO[C@@H](C)O[C@H]5[C@H](O)[C@H]3O)[C@H]3COC(=O)[C@H]23)OCO4)cc(OC)c1O,-,-,>100 µM
CN(C)CCCNC(=O)c1cc(NC(=O)c2cc(NC(=O)c3cc(NC(=O)c4ccnc(C(=O)Nc5cc(C(=O)Nc6cc(C(=O)Nc7cc(C(=O)NCCCN(C)C)n(C)c7)n(C)c6)n(C)c5)c4)cn3C)cn2C)cn1C,-,-,11.1 µM
O=c1[nH]c2c(c(=O)[nH]1)C(c1ccc(I)cc1)c1c([nH]c(=O)[nH]c1=O)O2,-,-,>206.6 µM
C[C@H](OC(=O)/C=C/c1ccc(O)c(O)c1)[C@H](C)OC(=O)/C=C/c1ccc(O)c(O)c1,-,-,38.4 µM
[N-]=[N+]=NCc1cc(CN=[N+]=[N-])cc(C(=O)CC(=O)C(=O)O)c1,-,-,24.5 µM
CC(=O)Oc1c(-c2ccc(Cl)cc2)oc2ccccc2c1=O,-,-,>100 µM
CN(C)CCCNC(=O)c1cc(NC(=O)c2cc(NC(=O)c3cc(NC(=O)c4cccc(C(=O)Nc5cc(C(=O)Nc6cc(C(=O)Nc7cc(C(=O)NCCCN(C)C)n(C)c7)n(C)c6)n(C)c5)n4)cn3C)cn2C)cn1C,-,-,33.3 µM
COc1nc(=O)[nH]c2c1C(c1ccc(Cl)cc1)c1c(OC)nc(=O)[nH]c1O2,-,-,143.7 µM
CC1=C(C(=O)Nc2ccccc2C)C(c2ccc(C3C(C(=O)Nc4ccccc4C)=C(C)NC(C)=C3C(=O)Nc3ccccc3C)cc2)C(C(=O)Nc2ccccc2C)=C(C)N1,-,-,>250 µM
O=C(/C=C/c1ccc(O)c(O)c1)O[C@@H]1C[C@](OC(=O)/C=C/c2ccc(O)c(O)c2)(C(=O)O)C[C@@H](O)[C@H]1O,LAI,-,0.35 ± 0.04 µg/mL
O=C(O)c1cc2ccccc2c(N=Nc2ccc(S(=O)(=O)Nc3nccs3)cc2)c1O,-,Mg2+,19 µM
C[C@H](Cn1cnc2c(N)ncnc21)OCP(=O)(O)O,-,-,375 µM
CC(=O)C(N=Nc1ccc(S(=O)(=O)Nc2ccccn2)cc1)C(=O)Nc1ccccc1C,-,Mn2+,78 µM
CN(C)CCCNC(=O)c1cc(NC(=O)c2cc(NC(=O)c3cc(NC(=O)c4ccc(C(=O)Nc5cc(C(=O)Nc6cc(C(=O)Nc7cc(C(=O)NCCCN(C)C)n(C)c7)n(C)c6)n(C)c5)cc4)cn3C)cn2C)cn1C,-,-,0.19 µM
CC(=O)Oc1ccc(/C=C/c2ncc3ccccc3n2)cc1OC(C)=O,-,-,>>200 µM
Cc1ccnc(NS(=O)(=O)c2ccc(N=Nc3cc4ccccc4c(C(=O)O)c3O)cc2)n1,-,Mg2+,86 µM
Cn1cc(NC(=O)c2cc(NC(=O)c3cc(NC(=O)C[C@@H]4C5C=CC(C5)[C@H]4C(=O)Nc4cc(C(=O)Nc5cc(C(=O)Nc6cc(C(=O)NCCC(=N)N)n(C)c6)n(C)c5)n(C)c4)cn3C)cn2C)cc1C(=O)NCCC(=N)N,-,-,36.5 µM
[N-]=[N+]=Nc1cn([C@H]2C[C@H](N=[N+]=[N-])[C@@H](COP(=O)(O)O)O2)c(=O)[nH]c1=O,-,-,70 µM
O=C(Oc1c(-c2ccc(Cl)c(Cl)c2)oc2ccccc2c1=O)c1cc(O)c(O)c(O)c1,-,-,9.1 µM
O=C(O)c1ccc2ccc(/C=C/c3ccc(O)c(O)c3)nc2c1O,-,-,2.4 µM
CC(=O)Oc1ccc(/C=C/C(=O)Oc2c(-c3ccc(Cl)c(Cl)c3)oc3ccccc3c2=O)cc1OC(C)=O,-,-,>100 µM
O=c1[nH]cc(N=Nc2ccc(S(=O)(=O)Nc3nccs3)cc2)cc1O,-,Mg2+,57 µM
CC(=O)Oc1ccc(/C=C/c2ncc3ccccc3n2)cc1,-,-,>>200 µM
CC[C@@]1(O)C(=O)OCc2c1cc1n(c2=O)Cc2cc3ccccc3nc2-1,-,-,>100 µM
Nc1ccn(C2C[C@H](O)[C@@H](COP(=O)(O)O[C@H]3[C@H](n4cnc5c(N)ncnc54)CO[C@@H]3COP(=O)(O)O)O2)c(=O)n1,-,-,19 µM
CC1=c2c(oc3cc(O)c(Nc4c(C)cc(O)cc4O)c(C)c23)=CC(=O)C1=Nc1c(C)cc(O)cc1O,-,-,5 µM
COc1cc(/C=C/S(=O)(=O)CS(=O)(=O)/C=C/c2ccccc2)cc(OC(C)=O)c1OC(C)=O,-,-,80 µM

The last 3 rows once more:

{"smiles": "Nc1ccn(C2C[C@H](O)[C@@H](COP(=O)(O)O[C@H]3[C@H](n4cnc5c(N)ncnc54)CO[C@@H]3COP(=O)(O)O)O2)c(=O)n1", "value": "19 µM"}
{"smiles": "CC1=c2c(oc3cc(O)c(Nc4c(C)cc(O)cc4O)c(C)c23)=CC(=O)C1=Nc1c(C)cc(O)cc1O", "value": "5 µM"}
{"smiles": "COc1cc(/C=C/S(=O)(=O)CS(=O)(=O)/C=C/c2ccccc2)cc(OC(C)=O)c1OC(C)=O", "value": "80 µM"}